Results of unrelated studies side by side (data: NIAID ChemDB).

Shared fields: growth or infection tests; agent: Human cytomegalovirus; method: virus yield; measure: EC50

An empty or dashed field is not shown.

{"structure": "OC[C@H]1O[C@@H](n2c(Br)nc3cc(Cl)c(Cl)cc32)[C@H](O)[C@@H]1O", "strain": "Recombinant C4 (D341E)", "result": "<4.8 µM"}
{"structure": "CC(C)Nc1nc2cc(Cl)c(Cl)cc2n1[C@H]1O[C@@H](CO)[C@H](O)[C@@H]1O", "cells": "MRC-5", "result": "18 µM"}
{"structure": "Nc1nc2c(ncn2COC(CO)CO)c(=O)[nH]1", "cells": "HFF", "strain": "TOWNE", "result": "<4.4 µM"}
{"structure": "CCCC(C)Nc1ccc(Oc2ccc(O)cc2)cc1", "result": "4.1 µM"}
{"structure": "Nc1ncnc2c1ncn2C=C1CC1CO", "cells": "KB", "strain": "AD169", "result": "<1 µM"}
{"structure": "O=C(Nc1ccc(NC(=S)Nc2cc(C(F)(F)F)cc(C(F)(F)F)c2)cc1)c1csnn1", "cells": "HFF", "strain": "AD169", "result": "0.12 µM"}
{"structure": "O=C(Nc1ccc(NC(=S)Nc2cc(C(F)(F)F)cc(C(F)(F)F)c2)cc1)c1ccco1", "cells": "HFF", "result": "0.0015 µg/mL"}
{"structure": "O[C@@H]1[C@H](O)CO[C@H]1n1c(Br)nc2cc(Cl)c(Cl)cc21", "cells": "HFF", "strain": "TOWNE", "result": "<0.06 µM"}
{"structure": "O=C(NCc1ccc(Cl)cc1)c1c[nH]c2ccc(CCCO)cc2c1=O", "strain": "DAVIS", "result": "<3.9 µM"}
{"structure": "Oc1ccc(Sc2ccc(NC3CCCCCC3)cc2)cc1", "result": "12.9 µM"}
{"structure": "O=C(NCc1ccc(Cl)cc1)c1c[nH]c2c(F)cccc2c1=O", "strain": "DAVIS", "result": "<50 µM"}
{"structure": "Nc1nc2c(ncn2COC(CO)CO)c(=O)[nH]1", "cells": "MRC-5", "strain": "AD169", "result": "0.3 µM"}
{"structure": "Nc1nc2c(ncn2COC(CO)CO)c(=O)[nH]1", "cells": "HFF", "strain": "DAVIS", "result": "0.7 µM"}
{"structure": "Cc1nc2ccc(CN(C)c3ccc(C(=O)N[C@@H](CCC(=O)O)C(=O)O)s3)cc2c(=O)[nH]1", "result": "0.002 µM"}
{"structure": "CC(=O)O[C@H]1[C@H](n2c(Br)nc3cc(Cl)c(Cl)cc32)OC[C@H]1OC(C)=O", "cells": "HFF", "strain": "TOWNE", "result": "<0.05 µM"}
{"structure": "OC[C@H]1O[C@@H](n2cnc3cnnnc32)[C@H](O)[C@@H]1O", "cells": "HFF", "result": "15 µM"}
{"structure": "C[C@H]1O[C@@H](n2c(Br)nc3cc(Cl)c(Cl)cc32)[C@H](O)[C@@H]1O", "cells": "HFF", "strain": "Isolate C4 mutations D344E + Q204R", "result": "<3 µM"}
{"structure": "Oc1ccc(Oc2ccc(NC3CCCC3)cc2)cc1", "result": "0.68 µM"}
{"structure": "OC[C@H]1O[C@@H](n2c(Cl)nc3cc4cc(Cl)c(Cl)cc4cc32)[C@H](O)[C@@H]1O", "result": "9 µM"}
{"structure": "O=C(Nc1ccc(NC(=S)NCCc2cc3ccccc3o2)cc1)c1cc2ccccc2o1", "cells": "HFF", "result": ">10 µg/mL"}
{"structure": "Nc1ncnc2c1c(Cl)cn2COC(CO)CO", "cells": "HFF", "strain": "TOWNE", "result": "<8 µM"}
{"structure": "OC[C@H]1O[C@@H](n2c(Br)nc3cc(Cl)c(Cl)cc32)[C@H](O)[C@@H]1O", "cells": "HFF", "strain": "TOWNE", "result": "<0.2 µM"}
{"structure": "OC[C@H]1O[C@@H](n2c(Br)nc3cc(Cl)c(Cl)cc32)[C@H](O)[C@@H]1O", "cells": "HFF", "strain": "TOWNE", "result": "<0.48 µM"}
{"structure": "CC(C)Nc1nc2cc(Cl)c(Cl)cc2n1[C@H]1O[C@@H](CO)[C@H](O)[C@@H]1O", "cells": "HFF", "strain": "C4 (BDCRB-resistant)", "result": "<2.9 µM"}
{"structure": "CCC(C)Nc1ccc(Oc2ccc(O)cc2)cc1", "result": "1 µM"}
{"structure": "OC[C@H]1O[C@@H](n2c(Br)nc3cc(Cl)c(Cl)cc32)[C@H](O)[C@@H]1O", "result": "<1.4 µM"}
{"structure": "Nc1nc2c(ncn2COC(CO)CO)c(=O)[nH]1", "strain": "TOWNE", "result": "<0.7 µM"}
{"structure": "Nc1nc2c(ncn2COC(CO)CO)c(=O)[nH]1", "cells": "HFF", "strain": "2916R (1263W94-resistant)", "result": "<1 µM"}
{"structure": "COc1cc(NC(=O)c2ccccc2F)cc(C)c1NC(=S)NC(C)c1ccc(F)cc1", "cells": "HFF", "result": ">10 µg/mL"}
{"structure": "OCC(CO)OCn1c(Br)nc2cc(Cl)c(Cl)cc21", "result": "<25 µM"}
{"structure": "CC(=O)O[C@H]1[C@H](n2c(Cl)nc3cc(Cl)c(Cl)cc32)OC[C@H]1OC(C)=O", "cells": "HFF", "strain": "TOWNE", "result": "<0.1 µM"}
{"structure": "COc1ccc(Oc2ccc(NC3CCCCCCC3)cc2)cc1", "result": "39.5 µM"}
{"structure": "CC(C)Nc1nc2cc(Cl)c(Cl)cc2n1[C@H]1O[C@@H](CO)[C@H](O)[C@@H]1O", "cells": "HFF", "strain": "2916 (bdcrb maribavir-resistant)", "result": "57 µM"}
{"structure": "OCC(CO)OCn1cc(I)c2c(NO)ncnc21", "cells": "HFF", "strain": "TOWNE", "result": "<3.2 µM"}
{"structure": "C[C@@H]1O[C@@H](n2c(Cl)nc3cc(Cl)c(Cl)cc32)[C@H](O)[C@@H]1O", "cells": "HFF", "strain": "AD169", "result": "0.82 µM"}
{"structure": "CN(C)c1cccc(CCNC(=S)Nc2ccc(NC(=O)c3ccccc3F)cc2)c1C(F)(F)F", "cells": "HFF", "result": ">0.5 µg/mL"}
{"structure": "OCC(CO)OCn1cc(Br)c2c(NO)ncnc21", "cells": "HFF", "strain": "TOWNE", "result": "<10 µM"}
{"structure": "COc1ccccc1CNC(=O)C1=Cc2ccncc2CC1", "cells": "HFF", "strain": "TOWNE", "result": ">28.2 µM"}
{"structure": "O=c1[nH]c(=O)n([C@H]2C[C@H](O)[C@@H](CO)O2)cc1C(F)(F)F", "cells": "HFF", "strain": "AD169", "result": "0.012 µM"}
{"structure": "COc1cc(OC)c(NC(=S)Nc2ccc(NC(=O)c3ccco3)cc2)cc1Cl", "strain": "16 isolates", "result": "<0.15 µM"}

For reference, 5 entries again:

structure | cells | strain | result
O=C(Nc1ccc(NC(=S)NCCc2cc3ccccc3o2)cc1)c1cc2ccccc2o1 | HFF | - | >10 µg/mL
O[C@@H]1[C@H](O)CO[C@H]1n1c(Br)nc2cc(Cl)c(Cl)cc21 | HFF | TOWNE | <0.06 µM
O=C(NCc1ccc(Cl)cc1)c1c[nH]c2ccc(CCCO)cc2c1=O | - | DAVIS | <3.9 µM
O=c1[nH]c(=O)n([C@H]2C[C@H](O)[C@@H](CO)O2)cc1C(F)(F)F | HFF | AD169 | 0.012 µM
Nc1nc2c(ncn2COC(CO)CO)c(=O)[nH]1 | HFF | TOWNE | <4.4 µM

Conditions beyond the fields shown may differ between rows. ECn is the concentration giving n% inhibition of infection, replication or growth.